Results deposited as PubChem BioAssay AID624099 (ICCB-Longwood, 2012)
The whole screen tested about 21,000 reagents; this is a random part of them. In the full data, 497 (2.4%) are marked active. 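Higher z means weaker E2 silencing; only reporter increases were scored, and knock-downs that hurt cell survival may mask genuine repressor factors.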 No sequences are given here.

- Purpose: 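Knock-downs relieving repression by E2 of an HPV18 LCR luciferase reporter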 (primary screen)
- System: human C33A cervical carcinoma cells (HPV-negative) stably expressing BPV1 E2 and an HPV18 LCR luciferase reporter
- Knock-down reagent: siRNA pool against human genes, 40 nM
- Duration: 72 h
- Read-out: 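Per-well luciferase luminescence, z-scored on each plate against the plate mean and SD with control wells left out, then averaged across three replicate plates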
- Direction: mean z-score and z-score: higher = stronger reporter signal, weaker E2 silencing
- Rule for the call: 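Mean z ≥ 2 together with z ≥ 2 in two or more of the three replicates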

Which result is listed for NOL11 (nucleolar protein 11)?
mean z-score: -0.09; z-score, replicate A: -0.02; z-score, replicate B: -0.01; z-score, replicate C: -0.24; outcome: inactive

Which result is listed for ABCG2 (ATP binding cassette subfamily G member 2 (JR blood group))?
mean z-score: 0.37; z-score, replicate A: 0.41; z-score, replicate B: 0.31; z-score, replicate C: 0.38; outcome: inactive

For ABCA11P (ATP binding cassette subfamily A member 11, pseudogene), how do the results read?
mean z-score: -0.23; z-score, replicate A: -0.16; z-score, replicate B: -0.26; z-score, replicate C: -0.27; outcome: inactive

With NIN (ninein), what was measured?
mean z-score: 2.52; z-score, replicate A: 2.95; z-score, replicate B: 2.54; z-score, replicate C: 2.08; outcome: active

What is on record for ARSL (arylsulfatase L)?
mean z-score: 1.2; z-score, replicate A: 0.96; z-score, replicate B: 1.18; z-score, replicate C: 1.47; outcome: inactive

Which result is listed for PTGR2 (prostaglandin reductase 2)?
mean z-score: -1.69; z-score, replicate A: -1.5; z-score, replicate B: -1.72; z-score, replicate C: -1.84; outcome: inactive

With TGFBR3 (transforming growth factor beta receptor 3), how do the results read?
mean z-score: -0.05; z-score, replicate A: -0.09; z-score, replicate B: 0.19; z-score, replicate C: -0.25; outcome: inactive

Reformatted: entries from further up.
Target gene	mean z-score	z-score, replicate A	z-score, replicate B	z-score, replicate C	outcome
PTGR2 (prostaglandin reductase 2)	-1.69	-1.5	-1.72	-1.84	inactive
TGFBR3 (transforming growth factor beta receptor 3)	-0.05	-0.09	0.19	-0.25	inactive

Next reagents follow:
What did the screen give for SOCS2 (suppressor of cytokine signaling 2)?
mean z-score: -0.66; z-score, replicate A: -0.53; z-score, replicate B: -0.87; z-score, replicate C: -0.58; outcome: inactive

What is on record for EIF5A (eukaryotic translation initiation factor 5A)?
mean z-score: -0.79; z-score, replicate A: -1.07; z-score, replicate B: -0.57; z-score, replicate C: -0.74; outcome: inactive

For OR6C6 (olfactory receptor family 6 subfamily C member 6), what was measured?
mean z-score: -1.7; z-score, replicate A: -2.1; z-score, replicate B: -1.11; z-score, replicate C: -1.88; outcome: inactive

With TAB3 (TGF-beta activated kinase 1 (MAP3K7) binding protein 3), what does the deposit list?
mean z-score: -0.35; z-score, replicate A: -0.04; z-score, replicate B: -0.27; z-score, replicate C: -0.74; outcome: inactive

What is on record for DRC11L (dynein regulatory complex subunit 11 like)?
mean z-score: -0.76; z-score, replicate A: -0.65; z-score, replicate B: -0.76; z-score, replicate C: -0.86; outcome: inactive
